Anti-infective test results gathered from many reports (values: NIAID ChemDB through PubChem).

Common to all: tests in culture; agent: Mycobacterium tuberculosis

Blank or dashed fields: not listed here. Inhibition is in % at the dose shown (toxicity tests: loss of growth or viability). ECn is the concentration giving n% inhibition of infection, replication or growth. Rows are shuffled and stem from different studies. MIC50, MIC90 and the like: level of inhibition, or share of isolates inhibited. MIC bound comes from a single tested concentration.

structure	strain	tested at	read by	read-out	value
NC(=O)NCCCN1c2ccccc2Sc2ccccc21	H37Rv	50 µg/mL	agar	inhibition	18%
Clc1ccccc1/C=N/Nc1nc2ccccc2nc1-c1ccccc1				MIC	>100 µg/mL
Clc1ccc(N2CCN(c3ccccc3Cl)CC2)nn1	Clinical isolate		resazurin	MIC	16 µg/mL
O=C(NCCCN1c2ccccc2Sc2ccccc21)N1C(=O)/C(=C\c2ccccc2[N+](=O)[O-])SC1c1ccccc1[N+](=O)[O-]	H37Rv	50 µg/mL	agar	inhibition	81%
Nc1nc(N)c(N=Nc2ccc(Cl)cc2)c(Cl)n1	H37Rv		BACTEC	MIC bound	>12.5 µg/mL
CC(=O)C[C@H]1C[C@H]2[C@H]([C@@H]3c4[nH]c5ccccc5c4CCN13)[C@H](O)C13CC/C=C\CCCCN1CC21C2CCCCCCCN2[C@H]13				MIC	1.9 µg/mL
N#C/C(=C\c1ccc2c(c1)OCO2)n1nnc2ccccc21	H37Rv	12.5 µg/mL		inhibition	41%
NC(=S)c1cnccn1	KK11-20			MBC	100 µg/mL
Cc1ccc(S(=O)(=O)[C@H]2CS(=O)(=O)C[C@@H]2NCCc2ccccc2)cc1	18b		resazurin	MIC	16 µg/mL
COc1c(N2CCNC(C)C2)c(F)cc2c(=O)c(C(=O)O)cn(C3CC3)c12	19 strains			MIC	8 µg/mL
S=C1C(=Nc2ccccc2)N(c2ccccc2)/C(=N\c2cccc[n+]2Cc2ccccc2)N1c1ccccc1.[Br-]	H37Rv	12.5 µg/mL	BACTEC	inhibition	32%
O=C(c1ccc(Oc2ccccc2)cc1)C(Cl)Cl	H37Rv			MIC	6.25 µg/mL
Fc1ccc(Nc2nnc(-c3ccc(NC(=S)Nc4ccccc4)cc3)s2)cc1	H37Rv	6.25 µg/mL		inhibition	0%
O=C(N/N=C/c1c(O)ccc2ccccc12)C(=O)N/N=C/c1c(O)ccc2ccccc12	H37Rv		BACTEC	MIC bound	>12.5 µg/mL
C[C@]1(COc2ccc(-n3cc(-c4ccc(F)cc4)nn3)cc2)Cn2cc([N+](=O)[O-])nc2O1	ss18b non-replicating phase		broth dilution / resazurin	MIC	4.59 µM
CC1COc2c(N3CCN(C)CC3)c(F)cc3c(=O)c(C(=O)O)cn1c23	001-011 (drug-resistant)			MBC	1.5 µg/mL
CC(=O)OC1OC(=O)C=C1[C@H]1CC=C(CC/C=C(\C)CCC2=C(C)CCCC2(C)C)C(O)O1				MIC	7 µg/mL
N#C/C(=C1C=C(Br)/C(=N/O)C=C/1Cl)c1cccc2ccccc12	H37Rv		BACTEC	MIC bound	>12.5 µg/mL
C=CCN(CC=C)c1nc(C(N)=S)cnc1C(N)=O	H37Rv			MIC	25 µg/mL
O=C(CCl)c1ccc(Sc2ccc(C(=O)CCl)cc2)cc1	H37Rv			MIC	50 µg/mL
Cc1ccc2c(c1)C(=O)N(NC(=O)c1ccc(-n3cccc3)cc1)C2=O	H37Rv		resazurin	MIC	3.125 µg/mL
NC(=O)c1ncc(C(N)=S)nc1N1CCCCC1	H37Rv			MIC	100 µg/mL
COC(=O)C1=NC(=N)N=C(C(=O)OC)C12C(=O)Cc1ccccc12	H37Rv	12.5 µg/mL	BACTEC	inhibition	0%
CC1=C2C(=CO[C@H](C)[C@H]2C)C(=O)C(C(=O)O)=C1O	M.AV	10 µg/mL		inhibition	22%
CC1=CC(=N\S(=O)(=O)c2ccccc2)/C2CC(C)=C(C)CC2/C1=N/S(=O)(=O)c1ccccc1	H37Rv	12.5 µg/mL	BACTEC	inhibition	-7%
COc1cccc(/C=N/NC(=O)[C@H](CO)NC(=O)OC(C)(C)C)c1O	H37Rv		resazurin	MIC	>100 µg/mL
C[C@]1(COc2ccc(-c3cc(COc4ccc(OC(F)(F)F)cc4)on3)cc2)Cn2cc([N+](=O)[O-])nc2O1	ss18b non-replicating phase		broth dilution / resazurin	MIC	0.94 µM
COc1ccc2nc(C(F)(F)C(F)(F)F)c(C#N)c(N)c2c1	Clinical isolate		resazurin	MIC	8 µg/mL
C[C@]1(COc2ccc(-c3cc(COc4ccc(F)cc4)on3)cc2)Cn2cc([N+](=O)[O-])nc2O1	ss18b non-replicating phase		broth dilution / resazurin	MIC	2.15 µM
NC(=O)/C(=C\c1ccc(C(F)(F)F)cc1)n1nnc2ccccc21	H37Rv			EC50	>12.5 µg/mL
S=C(Nc1ccccc1)Nc1ccc(-c2nnc(NCc3ccccc3)s2)cc1	H37Rv			MIC	>6.25 µg/mL
CCCNc1nc(C(N)=S)cnc1C(N)=O	H37Rv			MIC	100 µg/mL
O=C(N[C@@H](CO)C(=O)N/N=C/c1ccc([N+](=O)[O-])cc1)OCc1ccccc1	H37Rv		resazurin	MIC	>100 µg/mL
Cc1ccc(C)n1-c1nc(-c2ccc(Br)cc2)cs1	H37Rv		resazurin	MIC	0.4 µg/mL
COc1ccc(CSC(=S)Nc2ccc(N=Nc3ccccc3)cc2)cc1	H37Rv	128 µg/mL	BACTEC	inhibition	93%
O=C1CSC(c2ccc(Br)cc2)N1C(=O)NCCCN1c2ccccc2Sc2ccccc21	H37Rv	50 µg/mL	agar	inhibition	68%
CCCN(CCC)c1nc(C(N)=S)cnc1C(N)=O	H37Rv			MIC	25 µg/mL
Cc1nc(N)c2ncn([C@@H]3O[C@H](CO)[C@@H](O)[C@H]3O)c2n1	H37Rv			MIC	8 µg/mL
COc1ccc(/C=C(/C#N)n2nc3ccccc3n2)cc1OC	H37Rv	12.5 µg/mL		inhibition	31%
CSc1nc(N)c(N=Nc2ccc(S(=O)(=O)Nc3occ(C)c3C)cc2)c(=O)[nH]1	H37Rv	12.5 µg/mL	BACTEC	inhibition	-1%
O=C(c1ccc(CCc2ccc(C(=O)C(Cl)Cl)cc2)cc1)C(Cl)Cl	H37Rv			MIC	0.78 µg/mL
NC(=O)c1ccc(N=Nc2c(N)cc(N)cc2O)cc1	H37Rv		BACTEC	MIC	≥12.5 µg/mL
NC(=O)c1cnccn1	KK11-20			MBC	>200 µg/mL
COc1ccc(-c2csc(-n3c(C)ccc3C)n2)cc1	H37Rv		resazurin	MIC	6.25 µg/mL
CCCCCCC/C=C\CCCCCCCC(=O)NN	ATCC 35822 INHr		resazurin	MIC100	>100 µg/mL
O=C(CCl)c1cccc(-c2ccccc2)c1	H37Rv			MIC	50 µg/mL
O=C(ON=c1c2ccccc2ccc2ccccc12)c1cc([N+](=O)[O-])cc([N+](=O)[O-])c1	H37Rv		BACTEC	MIC bound	>12.5 µg/mL
CNC(=O)N1CCC(n2c(C)nc(C(=O)NC3CC3)c2C)CC1	Clinical isolate		resazurin	MIC	8 µg/mL
CC(C)(C)C1CCC(=NNC(=O)c2ccncc2)CC1	H37Rv			MIC	0.05 µg/mL
CSc1ccc(NC(=O)c2cc3c(s2)CN(C2CC2)C3)cc1	18b		resazurin	MIC	8 µg/mL
O=C(/N=C/c1ccc(Br)cc1)NCCCN1c2ccccc2Sc2ccccc21	H37Rv	25 µg/mL	agar	inhibition	28%
N#Cc1cccc(/C=N/NC(=O)[C@H](CO)NC(=O)OCc2ccccc2)c1	H37Rv		resazurin	MIC	50 µg/mL
O=C(NCCCN1c2ccccc2Sc2ccccc21)N1C(=O)/C(=C\c2cccc(O)c2)SC1c1cccc(O)c1		25 µg/mL	agar	inhibition	27%
COc1c(N2CCNC(C)C2)c(F)cc2c(=O)c(C(=O)O)cn(C3CC3)c12	ss18b non-replicating phase		broth dilution / resazurin	MIC	2.66 µM
CC(CN1CCN(CCOCCO)CC1)CN1c2ccccc2Sc2ccccc21.Cl.Cl	H37Rv		BACTEC	MIC bound	>12.5 µg/mL
CCCCCCCC/C=C/CCCCCCCC(=O)NNC(=O)c1ccncc1	ATCC 35822 INHr		resazurin	MIC100	6.25 µg/mL
S=C1SCN(CCc2ccccc2)CN1CCc1ccccc1	H37Rv	12.5 µg/mL	BACTEC	inhibition	54%
Cc1ccccc1/C=C1/SC(c2ccccc2C)N(C(=O)NCCCN2c3ccccc3Sc3ccccc32)C1=O	H37Rv	25 µg/mL	agar	inhibition	20%
COC(=O)C1(OC)C(=O)NC2=C1C(=O)c1ccccc1C2=O	H37Rv		resazurin	MIC bound	>6.25 µg/mL
N#C/C(=C\c1ccco1)n1nc2ccccc2n1	H37Rv			EC50	>12.5 µg/mL
CCCCCCC/C=N/NC(=O)c1ccc[n+](C)c1.Cc1ccc(S(=O)(=O)[O-])cc1	H37Rv	12.5 µg/mL	BACTEC	inhibition	-12%
C[C@@H]1C(=O)C[C@H]2[C@H]1CC[C@@](C)(O)[C@H]1CC[C@](C)(O1)[C@@H]2O				MIC	128 µg/mL
COc1ccc(/C=N/NC(=O)[C@H](CO)NC(=O)OCc2ccccc2)c(O)c1	H37Rv		resazurin	MIC	>100 µg/mL
c1ccc(C2=NN=C3C(c4ccccc4)=Nc4ccccc4N3C2)cc1				MIC	100 µg/mL
C[C@]1(COc2cccc(-n3cc(COc4ccc(F)cc4)nn3)c2)Cn2cc([N+](=O)[O-])nc2O1	H37Rv		broth dilution / resazurin	MIC	1.07 µM
CC(=O)NC(C)C(=O)NC1C(C)OC(=O)C2=C(O)CC(O)C(O)C21	H37Rv		BACTEC	MIC bound	>12.5 µg/mL
CC1=CC[C@]2(C)CC(=O)[C@@]3(C)[C@H](C(C(C)C)=C[C@@H]3O)[C@H]2CC1				MIC	6.25 µg/mL
O=C(c1ccc(-c2ccccc2)cc1)C(Cl)Cl	H37Rv			MIC	6.25 µg/mL
CC(C)(C)OC(=O)N[C@@H](CO)C(=O)N/N=C/c1ccccc1[N+](=O)[O-]	H37Rv		resazurin	MIC	>100 µg/mL
COC(=O)C12CC3(C)OC1(C)OC(=O)C2(Cc1ccccc1)N3C(C)=O	H37Rv	12.5 µg/mL	BACTEC	inhibition	42%
COc1cccc(/C=N/NC(=O)[C@H](CO)NC(=O)OCc2ccccc2)c1O	H37Rv		resazurin	MIC	100 µg/mL
CN(C)CCn1ncc(Sc2cc([N+](=O)[O-])ccc2N)c(Cl)c1=O	H37Rv		BACTEC	MIC bound	>12.5 µg/mL
NC(=O)c1ncc(C(N)=S)nc1N1CCCC1	H37Rv			MIC	>100 µg/mL
Fc1ccc(-c2csc(-n3cccc3)n2)cc1	H37Rv		resazurin	MIC	0.2 µg/mL
COc1cc(/C=C(\C#N)n2nnc3ccccc32)cc(OC)c1OC	H37Rv	12.5 µg/mL		inhibition	43%
CCCCCc1nc2c(C)c3c4c(c2o1)[C@@H](C)CC[C@@H]4[C@@H](C)C[C@H]3C=C(C)C				MIC	12.5 µg/mL
CCCCCCC/C=C\CCCCCCCC(=O)O	1896-HF INHr		resazurin	MIC100	>100 µg/mL
CSC(=S)N/N=C/c1nccc(-c2ccccc2)c1C	H37Rv		BACTEC	MIC	128 µg/mL
O=C(NN1C(=O)c2cccc([N+](=O)[O-])c2C1=O)c1ccc(-n2cccc2)cc1	H37Rv		resazurin	MIC	3.125 µg/mL
NC(=O)/C(=C\c1ccccc1)n1nc2ccccc2n1	H37Rv	12.5 µg/mL		inhibition	0%
O=C1NC(C(=O)N/N=C/c2cccc([N+](=O)[O-])c2)CO1	H37Rv		resazurin	MIC	100 µg/mL
Nc1nc(-c2ccc3c(c2)Sc2ccccc2O3)cs1	H37Rv	12.5 µg/mL	BACTEC	inhibition	77%
COc1ccc(/C=N/NC(=O)[C@H](CO)NC(=O)OC(C)(C)C)c(O)c1	H37Rv		resazurin	MIC	>100 µg/mL
CCN(CC)CCCNc1cc(OC)cc2nc3cc(Cl)ccc3nc12.Cl.Cl	H37Rv	12.5 µg/mL	BACTEC	inhibition	95%
CC(C)c1cc(C(C)C)c(S(=O)(=O)N2CCN(CCO)CC2)c(C(C)C)c1	18b		resazurin	MIC	16 µg/mL
O=C(c1ccc(-c2ccc(C(=O)C(Cl)Cl)cc2)cc1)C(Cl)Cl	H37Rv			MIC	1.56 µg/mL
O=C(O)/C(=C\c1ccc(C(F)(F)F)cc1)n1nnc2ccccc21	H37Rv			EC50	>12.5 µg/mL
S=C(Nc1ccccc1)Nc1ccc(-c2nnc(Nc3ccccc3)s2)cc1	H37Rv	6.25 µg/mL		inhibition	1%
O=C(NCC(c1cccs1)N1CCCCC1)c1cccs1	18b		resazurin	MIC	8 µg/mL
O=C1CSC(c2cccc(Cl)c2)N1C(=O)NCCCN1c2ccccc2Sc2ccccc21	H37Rv	50 µg/mL	agar	inhibition	60%
S=C(Nc1ccccc1)Nc1ccc(-c2nnc(NC3CCCCC3)s2)cc1	H37Rv			EC50	<6.25 µg/mL

For reference, 6 entries again:

structure,strain,tested at,read by,read-out,value
CCN(CC)CCCNc1cc(OC)cc2nc3cc(Cl)ccc3nc12.Cl.Cl,H37Rv,12.5 µg/mL,BACTEC,inhibition,95%
CSC(=S)N/N=C/c1nccc(-c2ccccc2)c1C,H37Rv,,BACTEC,MIC,128 µg/mL
O=C(CCl)c1ccc(Sc2ccc(C(=O)CCl)cc2)cc1,H37Rv,,,MIC,50 µg/mL
O=C(/N=C/c1ccc(Br)cc1)NCCCN1c2ccccc2Sc2ccccc21,H37Rv,25 µg/mL,agar,inhibition,28%
NC(=O)NCCCN1c2ccccc2Sc2ccccc21,H37Rv,50 µg/mL,agar,inhibition,18%
CC(C)c1cc(C(C)C)c(S(=O)(=O)N2CCN(CCO)CC2)c(C(C)C)c1,18b,,resazurin,MIC,16 µg/mL